Laboratory results from PMC6938011, “Antiplasmodial profile of selected compounds from Malaria Box: in vitro evaluation, speed of action and drug combination studies” (Malaria Journal, 2019).

Legend:
[1] = tested on: Hepatocarcinoma cells (HepG2); experiment: Cytotoxicity evaluation, MTT assay; assay type: cell-based, human; settings: ratio IC50^HepG2 (MTT) / IC50^Pf
Description: (§1) Hepatocarcinoma cells (HepG2) were cultivated in RPMI medium supplemented with 10% (v/v) fetal bovine serum and 0.2% (v/v) penicillin/streptomycin. The antibiotics were added to the medium to eliminate the potential interference of microbial contamination. Cells were cultivated at 37 °C and 5% CO2; the supplemented medium was changed every 2 days.
(§2) For the experimental procedures, cells were trypsinized and transferred to a 96-well plate at 30,000 cells per well and incubated at 37 °C overnight for cell adhesion. Then, serial dilutions of the inhibitor candidates were added to the plate. Cells without any compounds were used as positive growth controls. The plate was incubated at 37 °C and 5% CO2 for 72 h. After incubation, the highest compound concentration to be considered (highest concentration without precipitation) was observed by microscopy. Cytotoxicity was evaluated by two different methods. The first is a colorimetric assay based on metabolic cell activity in the presence of 3-(4,5-dimethylthiazol-2-yl)-2,5-diphenyltetrazolium bromide (MTT). Briefly, mitochondrial enzymes can convert the MTT dye into the purple insoluble compound formazan. To each well, 20 µL MTT at 5 mg/mL was added, followed by incubation at 37 °C for 3 to 5 h. After incubation, the supernatant was removed, and formazan crystals were solubilized in 100 µL DMSO. The absorbance, which is proportional to the number of viable cells, was determined using a SpectraMAX Plus 384 plate reader (Molecular Devices Corp., Sunnyvale, CA) (λ = 570 nm). The second method is based on the uptake of neutral red, a dye that is retained inside the lysosomes of viable cells. To each well, after removal of culture media, 200 µL neutral red medium 40 µg/mL was added, followed by incubation at 37 °C for 3 to 5 h. After incubation, supernatant was dispensed, and 200 µL 0.5% (v/v) formaldehyde in 1% (m/v) CaCl2 was added to remove excess of the dye for 5 min. Supernatant was dispensed, and 100 µL alcohol-acid solution (50% (v/v) ethanol, 1% (v/v) glacial acetic acid) was added, and the plate was stirred until a homogeneous solution was formed. The absorbance was determined using a SpectraMAX Plus 384 plate reader (Molecular Devices Corp., Sunnyvale, CA) (λ = 540 nm). For both methods, the half maximal inhibitory concentration (IC50^HepG2) was determined by non-linear regression analysis of the resulting concentration-response curve using the software Origin 2016 (OriginLab Corporation).

[2] = tested on: Hepatocarcinoma cells (HepG2); experiment: Cytotoxicity evaluation, neutral red assay; assay type: cell-based, human; settings: ratio IC50^HepG2 (neutral red) / IC50^Pf
Description: as §1, §2

Row | SMILES | SI^MTT Average (confidence interval-95%) [1] | SI^NR Average (confidence interval-95%) [2]
1 | C[C@H]1[C@H](OC(=O)CCC(=O)O)O[C@@H]2O[C@@]3(C)CC[C@H]4[C@H](C)CC[C@@H]1[C@@]24OO3 [Artesunate, reference compound] | 7000 (6000–8000) | 7000 (6000–8000)
2 | CN1CCN(c2ccc(Nc3c4ccccc4nc4ccccc34)cc2)CC1 [Compound 1] | 43.4 (42.6–44.2) | 45.1 (44.6–45.6)
3 | CCOC(=O)C1=C(C)N=c2sc(=Cc3cc(Cl)ccc3O)c(=O)n2C1c1ccc(OC)cc1 (stereo not drawn) [Compound 2] | 60 (50–70) | 55 (46–64)
4 | Brc1ccc(Nc2nc3ccccc3nc2Nc2ccc(Br)cc2)cc1 [Compound 3] | 15.1 (14.6–15.6) | > 16
5 | O=[N+]([O-])c1ccc(C=NNc2nc3ccccc3[nH]2)cc1 [Compound 4] | > 12 | > 12
6 | CCn1c(CN2CCN(Cc3ccccc3)CC2)nc2cc(NC(=O)c3cccs3)ccc21 [Compound 5] | 340 (280–400) | > 290
7 | O=C1c2ccccc2-c2nnc(-c3ccc(Br)cc3)cc21 [Compound 6] | > 6.6 | > 6.6
8 | O=C(Nc1ccc(C23CC4CC(CC(c5ccccc5)(C4)C2)C3)cc1)c1cccs1 [Compound 7] | > 21 | > 21
9 | Fc1ccc2[nH]c3c(NCCCN4CCOCC4)ncnc3c2c1 [Compound 11] | > 29 | > 29
